Results of unrelated studies side by side (data: NIAID ChemDB).

Common to all: growth or infection tests; agent: Candida albicans; measure: MIC90

Blank or dashed fields: not listed here.

structure,strain or isolate,conditions,result
CC(=O)N1CCN(c2ccc(OC[C@H]3CO[C@](Cn4ccnc4)(c4ccc(Cl)cc4Cl)O3)cc2)CC1,16 strains,,8 µg/mL
CCC(C)n1ncn(-c2ccc(N3CCN(c4ccc(OC[C@H]5CO[C@](Cn6cncn6)(c6ccc(Cl)cc6Cl)O5)cc4)CC3)cc2)c1=O,58 strains,,0.25 µg/mL
OC[C@H]1CO[C@](Cn2ccnc2)(c2ccc(-c3ccccc3)cc2)O1,44 strains,,>256 µg/mL
Fc1cccc(C(c2nccc3ccccc23)n2ccnc2)c1.O=[N+]([O-])O,44 strains,,256 µg/mL
CCC(C)n1ncn(-c2ccc(N3CCN(c4ccc(OC[C@H]5CO[C@](Cn6cncn6)(c6ccc(Cl)cc6Cl)O5)cc4)CC3)cc2)c1=O,2453 strains,,0.12 µg/mL
CC[C@@H]([C@H](C)O)n1ncn(-c2ccc(N3CCN(c4ccc(OC[C@@H]5CO[C@@](Cn6cncn6)(c6ccc(F)cc6F)C5)cc4)CC3)cc2)c1=O,10 strains (fluconazole-resistant),,1 µg/mL
Clc1ccccc1COc1ccc(C(c2nccc3ccccc23)n2ccnc2)cc1.O=[N+]([O-])O,17 strains,,≥256 µg/mL
Clc1ccc(C(c2cccc3ccccc23)n2ccnc2)s1,23 strains,,4 µg/mL
CC[C@@H]([C@H](C)O)n1ncn(-c2ccc(N3CCN(c4ccc(OC[C@@H]5CO[C@@](Cn6cncn6)(c6ccc(F)cc6F)C5)cc4)CC3)cc2)c1=O,17 isolates fluconazole-susceptible,,0.06 µg/mL
CS(=O)(=O)OCC1COC(Cn2ccnc2)(c2ccc(-c3ccccc3)cc2)O1,44 strains,,256 µg/mL
OC(Cn1cncn1)(Cn1cncn1)c1ccc(F)cc1F,Isolate M27-T-micro,24 h,25 µg/mL
c1ccc2c(C(c3ccc(-n4cccc4)cc3)n3ccnc3)cccc2c1,23 strains,,4 µg/mL
CC(N1CCN(c2ccc(-n3cnn(Cc4ccc(C(F)(F)F)cc4)c3=O)cc2)CC1)C(O)(Cn1cncn1)c1ccc(F)cc1F,6 strains (fluconazole-resistant),,0.19 µg/mL
Fc1ccc(COc2ccc(C(c3cccc4ccccc34)n3ccnc3)cc2)c(F)c1.O=[N+]([O-])O,16 strains,,≥256 µg/mL
C[C@H]1[C@H](O)[C@@H](C)/C=C/C=C/C=C/C=C/C=C/C=C/C=C/[C@H](O[C@@H]2O[C@H](C)[C@@H](O)[C@H](N)[C@@H]2O)C[C@@H]2O[C@](O)(C[C@@H](O)C[C@@H](O)CC[C@H](O)[C@@H](O)C[C@@H](O)CC(=O)O[C@H]1C)C[C@H](O)[C@H]2C(=O)O,25 isolates,,0.25 µg/mL
CCNC(CCC(C)C1CC[C@@]2(C)C3=C(CCC12C)C1(C)CC[C@H](O)C(C)(C)C1CC3)C(C)C,A.10231,,25 µg/mL
Clc1ccc(C(Cn2ccnc2)OCc2csc3c(Cl)cccc23)c(Cl)c1,16 strains,,1 µg/mL
COc1ccc(C(Cc2ccc(Cl)cc2)n2cncn2)cc1,28 strains,,64 µg/mL
Clc1ccc(COc2ccc(C(c3ccc(-c4ccccc4)cc3)n3ccnc3)cc2)c(Cl)c1.O=[N+]([O-])O,16 strains,,≥256 µg/mL
Fc1ccc(C(c2ccc3ccccc3c2)n2ccnc2)cc1,23 strains,,16 µg/mL
CCC(c1ccc(OC)cc1)C(O)c1ccc(OC)cc1,28 strains,,>256 µg/mL
CC(C)C(N)CCC(C)C1CC[C@@]2(C)C3=C(CCC12C)C1(C)CC[C@H](O)C(C)(C)C1CC3,A13803,,100 µg/mL
Nc1[nH]c(=O)ncc1F,10 isolates azole-resistant,,0.64 µg/mL
CC(C)C(CCC(C)C1CCC2C3CC=C4C[C@@H](O)CCC4(C)C3CCC12C)NS(=O)(=O)O,A11651,,6.25 µg/mL
COc1ccc(C(C(Cc2ccc(Cl)cc2Cl)c2ccc(Cl)cc2)n2ccnc2)cc1,28 strains,,64 µg/mL
CCC(C)n1ncn(-c2ccc(N3CCN(c4ccc(OC[C@H]5CO[C@](Cn6cncn6)(c6ccc(Cl)cc6Cl)O5)cc4)CC3)cc2)c1=O,ATCC 90028 (azole-susceptible),,0.0063 µg/mL
CC(=O)N1CCN(c2ccc(OC[C@H]3CO[C@](Cn4ccnc4)(c4ccc(Cl)cc4Cl)O3)cc2)CC1,50 isolates,,0.01 µg/mL
CCC(c1ccc(Cl)cc1)C(c1ccc(OC)cc1)n1cncn1,28 strains,,128 µg/mL
CC(=O)N1CCN(c2ccc(OCC3COC(Cn4ccnc4)(c4ccc(-c5ccccc5)cc4)O3)cc2)CC1,44 strains,,64 µg/mL
CC(=O)OCC1C=C(c2ccc(Br)cc2)C(=O)O1,9 isolates fluconazole-resistant,,2 µg/mL
CC(C)C(N)CCC(C)C1CCC2C3CC=C4C[C@@H](O)CCC4(C)C3CCC12C,A.10231,,0.78 µg/mL
C[C@H]1[C@H](O)[C@@H](C)/C=C/C=C/C=C/C=C/C=C/C=C/C=C/[C@H](O[C@@H]2O[C@H](C)[C@@H](O)[C@H](N)[C@@H]2O)C[C@@H]2O[C@](O)(C[C@@H](O)C[C@@H](O)CC[C@H](O)[C@@H](O)C[C@@H](O)CC(=O)O[C@H]1C)C[C@H](O)[C@H]2C(=O)O,13 strains (fluconazole-resistant),,0.25 µg/mL
CC(N1CCN(c2ccc(-n3cnn(Cc4ccc(OC(F)(F)F)cc4)c3=O)cc2F)CC1)C(O)(Cn1cncn1)c1ccc(F)cc1F,51 strains (fluconazole-susceptible),,0.09 µg/mL
CCC(c1ccc(OC)cc1)C(c1ccc(OC)cc1)n1cnnc1,28 strains,,>256 µg/mL
CCC(C)n1ncn(-c2ccc(N3CCN(c4ccc(OC[C@H]5CO[C@](Cn6cncn6)(c6ccc(Cl)cc6Cl)O5)cc4)CC3)cc2)c1=O,Fluconazole-susceptible,,0.12 µg/mL
COc1ccc(C(c2ccc3ccccc3c2)n2ccnc2)cc1,23 strains,,16 µg/mL
Clc1ccccc1COc1ccc(C(c2cccc3ccccc23)n2ccnc2)cc1.O=[N+]([O-])O,17 strains,,≥256 µg/mL
CC[C@@H](c1ccc(Cl)cc1)[C@@H](c1ccc(OC)cc1)n1cnnc1,28 strains,,256 µg/mL
Fc1ccc(COc2ccc(C(c3nccc4ccccc34)n3ccnc3)cc2)c(F)c1,16 strains,,≥256 µg/mL
O=C(OCC1COC(Cn2ccnc2)(c2ccc(-c3ccccc3)cc2)O1)c1ccccc1,44 strains,,64 µg/mL

The first 3 rows once more:

structure | strain or isolate | conditions | result
CC(=O)N1CCN(c2ccc(OC[C@H]3CO[C@](Cn4ccnc4)(c4ccc(Cl)cc4Cl)O3)cc2)CC1 | 16 strains |  | 8 µg/mL
CCC(C)n1ncn(-c2ccc(N3CCN(c4ccc(OC[C@H]5CO[C@](Cn6cncn6)(c6ccc(Cl)cc6Cl)O5)cc4)CC3)cc2)c1=O | 58 strains |  | 0.25 µg/mL
OC[C@H]1CO[C@](Cn2ccnc2)(c2ccc(-c3ccccc3)cc2)O1 | 44 strains |  | >256 µg/mL

MIC50, MIC90 and the like: level of inhibition, or share of isolates inhibited. Conditions beyond the fields shown may differ between rows.